In US20190136246A1 (CSIR, published 2019):

Biological target: BTV-8 core-like particle (BTV-8 VP3 SEQ ID NO:1 and BTV-8 VP7 SEQ ID NO:5) (Bluetongue virus serotype 8, UniProt P12435 1-901; P69361 1-349)
Assay: VLP assembly on co-expression in N. benthamiana; iodixanol gradient, TEM

B1: BTV-8 VP2 (SEQ ID NO:7) (other)
chain: MEELAIPIYTNVFPAELLDGYDYIIDVSSRVEEEGDEPVKRHDVTEIPRNSMFDIKDEHIRDAIIYKPVNNDGYVLPRVLDITLKAFDDRKRVVLNDGHSEFHTKTNWVQWMIDDAMDVQPLKVDIAHTRSRISHALFNCTVRLHSKKADTASYHVEPVEIESWGCNHTWLSRIHHLVNVELFHCSQEAAYTLKPTYKIISNAERASTSDSFNGTMIELGRNHQIQMGDQGYQKLKEGLVQVRIEGKTPLVIQEEITALNKIREQWIARNFDQREIKVLDLCRLLSTIGRKMCNTEEEPKNEADLSVKFQMELDEIFRPGNNERTNIMGGGVHRKNEDRFYVLIMIAASDTNKGRIWWSNPYPCLRGALIAAEVQLGDVYNLLRNWFQWSVRPTYVPYDRNRESDKYIYSRINLFDSTLRPGDKIVHWEYKLLNEVREVSINKGNECDLFPEDEEFTTKFHEARYTEMKNQIIQSGWNQRDFKMHKILEDGANVLTIDFEKDAHIGTGSALSLPDYYNKWIIAPMFNAKLRITEVVIGTAHTDDPAVGRSAKAFTHDPFDLQRYCLARYYDVRPGMMGRALSKQQNMSSMTDKLSKQEDYAGIVSRRLEYKERENRCLTETAQYVFEKTCLYVLELLSRHTMPSEDSEVTFEHPTIDPSVDIETWKIIDVSQLIIFVFDYLFENRKIVRDTTEARWTLFKIRSEVGRARIDAIEMTFPRFGRMLRNASQAKINQDIACLNFLPLLFIIGDNISYAHRQWSIPVLLYAHDIRIIPLEVGAYNNRFGLTSYLEYMAFFPSYATRVAKIDESIKECAIAMAEFYMNTDIHSGSVMSNVITTKRLLYETYLASLCGGYSDGLLWYLPITHPSKCLVAFEVADDVVPLSVRRERILSRFPLSSRHVKGIALISVDRNQKVSVQTEGIVTHRLCKKNLLKYVCDVILFKFSGHVFGNDEMLTKLLNV
**Q.** Does B1 bind?
**A.** Result: binds
